Laboratory results taken from PMC12443476 (eLife, 2025).

Target: T1, hTom70 ([…]) lacking the transmembrane domain (human)
T1 construct: also called Translocase of Outer Membrane 70
Test: fluorescence polarisation
Conditions: both partners purified

B1: Orf9b ∆91–97 (domain or fragment)
chain: not shown
notes: also called truncated Orf9b; 'obligate' monomer
binding result: binds
